Broadly, the Kd is the concentration at which binding is half-saturated. Higher therefore signals weaker binding. As a reminder, the koff is the first-order rate constant of dissociation. Lower therefore signals slow dissociation. The term kon denotes the second-order rate constant of association. Lower therefore signals slower complex formation.

This passage reports Kd, koff and kon results from article PMC9664764 (iScience, 2022).

The labels stand for the following.
B1: Ab354 (antibody, V domains shown)
VH: QVQLVQSGAEVKKPGASVTVSCKASGFLFTGYYMHWVRQAPGQGLEWMGWINPNSGASNYTRKFQGRVTMTRDTSISATYMKLSRLTSDDTAVYYCARDLAFSMVRGALDYWGQGTLVTVSS
VL: QLVLTQPPSASGSPGQSVTISCTGTSSDVGGYNYVSWYQHHPGKAPKLMIYEVSKRPSGVPDRFSGSKSGNTASLTVSGLQAEDEADYYCNSYAGNNNWVFGTGTKVTVL
B2: Ab326 (antibody, V domains shown)
VH: EVQLVESGGGVVQPGRSLRLSCAASGFTFSHYPMHWVRQAPGRGLEWVAVISYDGSNQHYVDSVKGRFTISRDNSKNTLYLQMNSLRAEDTAVYFCASLITMIRGVPDYWGQGTLVTVSS
VL: DIQMTQSPSSLSASVGDRVTITCRASQSISNYLNWYQQKPGKAPNLLIFAASSLQSGVPSRFSGSGSGTEFTLTISSLQPEDFAAYYCLQTYSTPRTFGQGTRLEIK
B3: Ab496 (antibody, V domains shown)
VH: EVQLVQSGPEVKKPGTSVKVSCKASGFIFTNSAVQWVRQARGQRLEWIGWIVVGSGNPNYAQKFQERVTITRDRSTSTAYMELSSLTSEDTAVYYCAAFPYYYDNSGSGPWGQGTLVTVSS
VL: DIQLTQSPSSLSASVGDRVTITCQASQDIRNNLNWYQQIPGKAPKLLIYDASNLETGVPSRFSGSASGTDFTFTISSLQPEDVATYYCQQYANLPPFTFGPGTKVDIK

For the assay, the target named is RBD-SBP (SARS-CoV-2 Spike RBD, 319-541AA, SBP tag) (SARS-CoV-2, Wuhan-Hu-1 (P0DTC2), UniProt P0DTC2). The experiment in a line: SPR. Conditions: both partners purified.
As for B1, the Kd was determined as 0.00534 nM, the dissociation rate constant (koff) came to 8.44e-06 s⁻¹ and the kon was 1.58e+06 M⁻¹ s⁻¹.

For the molecule B2, the Kd worked out at 0.0346 nM, the koff amounted to 3e-05 s⁻¹ and the kon came to 866000 M⁻¹ s⁻¹.

In turn, B3 had a dissociation constant Kd of 0.152 nM, a koff of 0.000193 s⁻¹ and a kon of 1.27e+06 M⁻¹ s⁻¹.
